Compound potency records, mixed from different reports. Data source: NIAID ChemDB in PubChem.

All rows: growth or infection tests; agent: Herpes simplex virus 1; cells: VERO; measure: EC50

Two numbers with a dash give a range or band.

SMILES,strain or isolate,read by,value
CCOC(=O)P(=O)(O)OC[C@H]1S[C@@H](n2cc(CC)c(=O)[nH]c2=O)C[C@@H]1O,L2 acyclovir-susceptible,cytopathic effect,0.7 µM
Nc1nc(-c2ccc(Br)cc2)cs1,KOS,plaque count,10 µg/mL
NC1=Nc2c(ncn2CCCCC(F)(F)P(=O)(O)O)C(=O)C1,,cytopathic effect,>250 µM
CC1(C)CCC[C@@]2(C)[C@H]1CC[C@H]1C[C@@H]3CC12CCC3=O,,plaque count,>500 µM
[N-]=[N+]=CC(=O)CC[C@H](N)C(=O)O,KOS,plaque count,16 µM
Nc1nc2c(ncn2COCCO)c(=O)[nH]1,,virus yield,0.311 µM
CCCCCC(=O)O[C@H]1C[C@H](n2cc(/C=C/Br)c(=O)[nH]c2=O)O[C@@H]1COP1(=O)OCc2cccc(C)c2O1,KUPKA (TK+),plaque count,0.54 µg/mL
C[C@]12CCC3OC[C@@]3(C)[C@@H]1CC[C@H]1C[C@@H]3CC12CC[C@]3(O)CO,,plaque count,>500 µM
CC(=O)OC1CCC2(C)C(=CCC3C4CCC(=O)C4(C)CCC32)C1,,virus yield,86.7 µM
O=c1[nH]c(=O)n([C@H]2C[C@H](O)[C@@H](COP3(=O)OCc4c(Cl)cccc4O3)O2)cc1/C=C/Br,B2006 (TK-),plaque count,>128 µg/mL
COc1cc(OC)c(N2C(=O)C=C(c3ccccc3)C2=O)c(OC)c1,KOS,plaque count,3.9 µg/mL
C[C@]12CC[C@H](O)CC1=CCC1C2CC[C@]2(C)C(=O)[C@H](Br)CC12,,virus yield,19.1 µM
NC1=Nc2c(ncn2CCC/C=C/P(=O)(O)O)C(=O)C1,,cytopathic effect,≥250 µM
CCCCCCCCCC(=O)O[C@H]1C[C@H](n2cc(/C=C/Br)c(=O)[nH]c2=O)O[C@@H]1COP1(=O)OCc2cccc(C)c2O1,KUPKA (TK+),plaque count,0.45 µg/mL
CCOC(=O)P(=O)(O)O,,plaque count,>500 µM
Cc1cccc2c1OP(=O)(OC[C@H]1O[C@@H](n3cc(/C=C/Br)c(=O)[nH]c3=O)C[C@@H]1OC(=O)[C@@H](N)Cc1ccccc1)OC2,B2006 (TK-),plaque count,>128 µg/mL
C[C@@]1(CO)[C@H](O)CC[C@@]2(C)[C@H]1CC[C@H]1C[C@@H]3C[C@@]12CC[C@@]3(C)O,,plaque count,>500 µM
C[C@]12CCC3C(CC[C@H]4C[C@@H](O)CC[C@]34C)C1C=CC21OCCO1,,virus yield,268 µM
CCOC(=O)P(=O)(O)OCC,,plaque count,>500 µM
C[C@]12CCC3C(CC[C@H]4C[C@@H](O)CC[C@]34C)C1C[C@@H](Br)C2=O,,virus yield,97.5 µM
CC(=O)O[C@H]1C[C@H](n2cc(/C=C/Br)c(=O)[nH]c2=O)O[C@@H]1COP1(=O)OCc2ccccc2O1,KUPKA (TK+),plaque count,0.38 µg/mL
Nc1nc2c(ncn2COC(CO)CO)c(=O)[nH]1,,,<1 µM
O=C1Nc2c(Cl)cc(Cl)cc2C12Nc1ccccc1S2,KOS,plaque count,13 µg/mL
O=c1[nH]c(=O)n([C@H]2C[C@H](O)[C@@H](CO)O2)cc1/C=C/Br,,plaque count,0.06–0.22 µM
CC1OP(=O)(OC[C@H]2O[C@@H](n3cc(/C=C/Br)c(=O)[nH]c3=O)C[C@@H]2O)Oc2cccc(Cl)c21,B2006 (TK-),plaque count,>128 µg/mL
C[C@@]12COCO[C@@H]1CC[C@@]1(C)[C@H]2CC[C@H]2C[C@@H]3CC21CCC3=O,,plaque count,>500 µM
CC(=O)O[C@H]1CC[C@@]2(C)C(=CC[C@@H]3[C@@H]2CC[C@]2(C)C(=O)[C@@H](OC(C)=O)C[C@@H]32)C1,,virus yield,489 µM
CC1(C)CCC[C@@]2(C)[C@H]1CC[C@H]1C[C@@H]3CC12CC[C@]3(O)CO,,plaque count,>500 µM
O=C(O)P(=O)(O)O,,plaque count,45 µM
CC(=O)O[C@H]1CC[C@@]2(C)C(=CC[C@@H]3[C@@H]2CC[C@]2(C)C(=O)[C@H](OC(C)=O)C[C@@H]32)C1,,virus yield,59.2 µM
O=C(Oc1ccccc1)P(=O)(O)Oc1ccccc1,,plaque count,15 µM
C[C@]1(CO)C2CCC3CC4CC3(CC[C@]4(O)CO)[C@@]2(C)CC[C@H]1O,,plaque count,>500 µM
C[C@]12CC[C@H](O)CC1=CC[C@@H]1[C@@H]2CC[C@@]2(C)[C@H]1CCC21OCCO1,,virus yield,629 µM
Cc1cccc2c1OP(=O)(OC[C@H]1O[C@@H](n3cc(/C=C/Br)c(=O)[nH]c3=O)C[C@@H]1O)OC2,KUPKA (TK+),plaque count,0.58 µg/mL
CC(=O)O[C@H]1CC[C@]2(C)C3CC[C@]4(C)C(=O)[C@H](OC(C)=O)CC4C3CC[C@H]2C1,,virus yield,218 µM
Nc1nc2c(ncn2COCCOP(=O)(O)C(=O)O)c(=O)[nH]1,L2/R,cytopathic effect,286 µM
Cc1cccc2c1OP(=O)(OC[C@H]1O[C@@H](n3cc(/C=C/Br)c(=O)[nH]c3=O)C[C@@H]1OC(=O)[C@H](N)C(C)C)OC2,KUPKA (TK+),plaque count,0.57 µg/mL
Cc1ccc(OP(=O)(O)C(=O)O)cc1,,plaque count,3 µM
CC1(C)OC[C@]2(C)[C@@H](CC[C@@]3(C)[C@H]2CC[C@H]2C[C@@H]4CC23CC[C@]4(O)CO)O1,,plaque count,>500 µM

Repeating the final 5 entries:

SMILES	strain or isolate	read by	value
CC(=O)O[C@H]1CC[C@]2(C)C3CC[C@]4(C)C(=O)[C@H](OC(C)=O)CC4C3CC[C@H]2C1		virus yield	218 µM
Nc1nc2c(ncn2COCCOP(=O)(O)C(=O)O)c(=O)[nH]1	L2/R	cytopathic effect	286 µM
Cc1cccc2c1OP(=O)(OC[C@H]1O[C@@H](n3cc(/C=C/Br)c(=O)[nH]c3=O)C[C@@H]1OC(=O)[C@H](N)C(C)C)OC2	KUPKA (TK+)	plaque count	0.57 µg/mL
Cc1ccc(OP(=O)(O)C(=O)O)cc1		plaque count	3 µM
CC1(C)OC[C@]2(C)[C@@H](CC[C@@]3(C)[C@H]2CC[C@H]2C[C@@H]4CC23CC[C@]4(O)CO)O1		plaque count	>500 µM

An empty or dashed field is not shown. Rows are shuffled and stem from different studies. ECn: concentration that inhibits the pathogen or its effect by n%.